The text below walks through data of paper PMC4909209, “Escherichia coli Protein Expression System for Acetylcholine Binding Proteins (AChBPs)” (2016).

For experiment [1], the target named is de-tagged Ls-AChBP (Lymnaea stagnalis acetylcholine binding protein) (Lymnaea stagnalis) (UniProt P58154).
The target of experiment [2] is ubiquitin tagged Ac-AChBP (Aplysia californica acetylcholine binding protein) (Aplysia californica).

pKi: −log10 of the molar value.

Consider alpha-conotoxin PnIA (A10L) (peptide), for which the values for the pKi in experiment [1] and in experiment [2] were 5.70 and 8.55, respectively.
